## Sequence variants of PSTVd stem 3 after infection

Reference: Wu et al. 2024, doi:10.1371/journal.ppat.1012142.

Region: stem 3 of PSTVd (intermediate strain), upper and lower strand joined, each 5' to 3', the first 8 letters being the upper strand. Wild type: GUGGUUCCGGAACCGC. Varied positions (N): GUGGUUCCGNANNCNN.

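Three N. benthamiana plants were inoculated with the whole mutant pool. Progeny were sequenced from the inoculated region (day 5), the margin of the inoculated leaf (day 10) and systemic leaves (day 12).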

Values are reads per thousand in the sample; higher means more abundant, 0 means not found. Each value is the mean of three plants. "Pool" is the share in the plasmid pool used as inoculum, on the same scale. The inoculated region was read from the minus strand, the other sites from the plus strand. Samples held 27,691 to 54,225 reads, so the smallest values rest on one or two reads.

sequence	pool	inoculated region	leaf margin	systemic leaves
GUGGUUCCGCAUGCUC	1.75	0.523	0.299	0.00811
GUGGUUCCGAAACCUC	0.754	0.317	0.0226	0
GUGGUUCCGGAUUCUG	0.739	0.306	0.0226	0
GUGGUUCCGGAGUCCU	2.22	1.40	1.15	1.05
GUGGUUCCGCACUCUG	0.908	0.340	0	0
GUGGUUCCGUAGCCUA	1.43	0.624	0.00944	0.0386
GUGGUUCCGCAAACUG	0.816	0.285	0	0
GUGGUUCCGGAAACUG	0.877	0.287	0.0335	0
GUGGUUCCGUAAACGG	0.769	0.274	0.0106	0
GUGGUUCCGUAGCCGA	0.831	0.292	0	0
GUGGUUCCGAAAGCUU	0.646	0.798	0.143	0
GUGGUUCCGGAAGCGA	0.677	0.256	0.0332	0
GUGGUUCCGGAGUCAU	0.785	0.774	1.29	0.988
GUGGUUCCGCAGUCAC	0.816	0.670	0	0
GUGGUUCCGUAGUCCA	1.83	1.55	0.0321	0.142
GUGGUUCCGUAACCGG	0.923	0.337	0.0212	0
GUGGUUCCGAAAGCUA	0.754	0.365	0	0
GUGGUUCCGGAGGCCC	0.739	0.331	0.0241	0
GUGGUUCCGGAUUCCG	0.985	0.354	0.0120	0
GUGGUUCCGGACACUA	1.57	0.744	0.129	0.0311
GUGGUUCCGCAAGCAC	0.862	0.324	0	0
GUGGUUACGGAACCGA	0.0154	0.0161	0	0.00615
GUGGUUCCGAAUUCGC	0.739	0.827	0.120	0
GUGGUUCCGGAGACAG	0.662	0.776	0.120	0
GUGGUUCCGGACGCAG	0.800	0.309	0.0120	0
GUGGUUCCGGAGACAC	0.877	0.679	0	0
GUGGUUCCGUAGCCGG	0.816	0.315	0	0
GUGGUUCAGAAGCCUG	0.0154	0	0	0
GUGGUUCCGUACUCGA	1.54	0.426	0.0106	0.00621
GUGGUUCCGGACCCAC	0.769	0.380	0	0
GUGGGUCCGUAGCCUA	0.0154	0	0	0
GUGGUUCCGAAGUCAA	1.12	0.928	0.950	1.06
GUGGUUCCGGAAUCCA	1.06	0.267	0.0106	0
GUGGUUCCGAAGUCAU	1.66	1.03	0.951	1.11
GUGGUUACGCAGACUU	0.0154	0	0	0
GUGGUUCCGGAUUCGU	2.17	1.84	0.166	0
GUGGUUCCGAAAGCUG	0.862	0.239	0.0318	0
GUGGUUCCGCAAGCGG	1.52	0.615	0.125	0
GGGGUUCCGGAGACGU	0.0154	0	0	0
GUGGUUCCGUAAACUG	0.846	0.265	0	0
GUGGGUCCGGAUUCGU	0.0308	0	0	0
GUGGUUCCGGAAACCA	0.708	0.302	0.0453	0
GUGGUUCCGCACGCGC	0.800	0.315	0.0309	0
GUGGUUCUGUACCCCU	0.0154	0	0	0
GUGGUUCCGUAGUCAC	0.908	0.744	0.502	0
GUGGUUCCGGAUUCCC	1.09	0.334	0	0
GUGGUUCCGAACACCG	0.785	0.721	0.176	0
GUGGUUCCGAAAGCAU	1.12	0.920	1.04	1.08
GUGGUUCCGAAGACGA	0.908	0.838	0.0200	0
GUGGUUCCGAAACCCG	0.970	0.478	0	0.00621
GUGGUUCCGAAGCCUU	0.939	0.918	0.0200	0
GUGGUUCCGUAAUCAU	0.846	0.747	0.464	0
GUGGUUCCGAAUGCUA	0.754	0.367	0.00944	0
GUGGUUCCGAACCCAA	0.923	0.733	0	0
GUGGUUCCGCACACAG	0.708	0.336	0.0106	0
UUGGUUCCGAAGACAG	0.0154	0	0	0
GUGGUUCCGGAUGCGA	2.39	0.841	0.0241	0.0124
GUGGUUCCGCAGUCCU	1.03	0.688	1.00	0.987
GUGGUUCCGGACACUG	1.08	0.302	0.0106	0
GUGGUUCCGUAGACGA	1.00	0.293	0	0.00621
GUGGUUCCGAAAUCUG	0.908	0.760	0.00944	0
GUUGUUCCUGAACCGC	0.0154	0.0267	0.0307	0.0267
GUGGUUCCGGAUUCAC	0.908	0.848	0	0
GUGGUUCCGCAAACUU	1.45	0.447	0	0.0497
GUGGUUCCGCACACGC	0.554	0.292	0.0106	0
GUGGUUCCGGACUCCG	0.723	0.353	0.0106	0
GUGGUUCCGAACCCGU	0.708	0.796	0.120	0
GUGGUUCCGGACCCAG	0.939	0.325	0.0347	0

The last 7 entries again:

- GUUGUUCCUGAACCGC (pool 0.0154) = inoculated region 0.0267; leaf margin 0.0307; systemic leaves 0.0267
- GUGGUUCCGGAUUCAC (pool 0.908) = inoculated region 0.848; leaf margin 0; systemic leaves 0
- GUGGUUCCGCAAACUU (pool 1.45) = inoculated region 0.447; leaf margin 0; systemic leaves 0.0497
- GUGGUUCCGCACACGC (pool 0.554) = inoculated region 0.292; leaf margin 0.0106; systemic leaves 0
- GUGGUUCCGGACUCCG (pool 0.723) = inoculated region 0.353; leaf margin 0.0106; systemic leaves 0
- GUGGUUCCGAACCCGU (pool 0.708) = inoculated region 0.796; leaf margin 0.120; systemic leaves 0
- GUGGUUCCGGACCCAG (pool 0.939) = inoculated region 0.325; leaf margin 0.0347; systemic leaves 0

Wild type was 17.3 per thousand in the pool and the most common sequence in every sample (inoculated region 330, 345, 235; leaf margin 794, 766, 816; systemic leaves 830, 792, 869). The authors trace changes outside the varied positions to PCR and sequencing errors or to mutation in the plant; presence does not show that a variant is infectious alone.